The numbers were not newly measured in PMC2630844, “Characterizing the Anti-HIV Activity of Papuamide A” (Marine Drugs, 2008), which cites them from elsewhere.

Read-outs that look alike come from different tables or passages of the source.

The test system of this series is HIV induced T cell death. To be noted: HIV induced T cell death in vitro, cited from earlier work.

Turning to neamphamide A [reference compound], the “selectivity index (SI)” value (SI as defined by paper: effective dose divided by the cytotoxic dose) was 9.29.
For the substance papuamide B, the “selectivity index (SI)” value is recorded as 21.
Regarding callipeltin A [reference compound], the “selectivity index (SI)” value is 29.
